Measured values as given in PMC9532970, “Rational design of photosynthetic reaction center protein maquettes” (Frontiers in Molecular Biosciences, 2022).

Assays:
RC maquette = experiment: Heme B retained by RC maquette after expression in E. coli and purification (UV/vis estimate)
DH maquette = experiment: Heme B retained by DH maquette after expression in E. coli and purification (UV/vis estimate); details: after IMAC, TEV cleavage and SEC, no exogenous heme

`C=CC1=C(C)c2cc3[n-]c(cc4[n-]c(cc5nc(cc1n2)C(C)=C5C=C)c(C)c4CCC(=O)O)c(CCC(=O)O)c3C.[Fe+2]` [heme B] was tested, and the “heme B remaining bound after purification, per mole of RC maquette” value (RC maquette; after Ni-NTA and SEC, no exogenous heme) was ~0.1 equivalents, the “fraction of protein that retained heme after purification” value (RC maquette; no exogenous heme added) was ~10% and the “heme B contained after purification, per DH maquette” value (DH maquette) was ~0.25 molar equivalents. For the same molecule, the “heme B contained after purification, per binding site” value (DH maquette) was ~0.13 equivalents.
